Data taken from ChEMBL document CHEMBL3988442, “University of Dundee, Small-Polar-MMV Screening Library” (2021).

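Whole-cell growth test on Mycobacterium tuberculosis, read after 4 days in a medium based on cholesterol and the lipid DPPC; the read-out is not stated. Concentration: 500 µM. Higher reads as more growth inhibition (inferred: compounds with an IC50 in retests scored well above the rest). About 18,000 compounds were tested under these conditions; 5% (about 900) showed 50% or more at least once.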

Results are given as percent effect. How 0% and 100% were set is not recorded. Most values in the screen are low, and negative values occur. Many other results are left out here, so strong results are more common than in the screen.

| structure | percent effect |
|---|---|
| `CN1CCC(CCN)CC1` | -36.06 |
| `CCOc1ncc(C(=O)NCC(C)(O)C(C)C)cc1Cl` (stereo unspecified) | 79.73 |
| `NCc1ccc(CNC(=O)C2CCCCO2)cc1` (stereo unspecified) | 0.1175 |
| `Cc1[nH]c2ccc(C(N)=O)cc2c1C` | 90.08 |
| `C[C@@H](N)c1ccc(Cl)cn1` | 2.431 |
| `Cc1cccc2c1OCCC2N` (stereo unspecified) | 8.446 |
| `CC(C)NC(=O)N1CCCC(S(C)(=O)=O)C1` (stereo unspecified) | 5.631 |
| `CCCN1CCN(C(=O)COc2ccccc2)CC1` | 57.63 |
| `CCn1c(SCC(N)=O)nnc1-c1cc(Br)cs1` | 98.82 |
| `CCCc1ccc(C(=O)N2CCCN(C)CC2)cc1` | 57.52 |
| `CCC(C)(C)NCC(=O)Nc1ccc2c(c1)OCCO2` | 28.31 |
| `Cn1c(=O)c2c(nc(Cl)n2CCCC#N)n(C)c1=O` | 61.57 |
| `COc1ccc(-c2noc(Cn3cncn3)n2)cn1` | 16.25 |
| `NCCC1CN(Cc2ccccc2)CCO1` (stereo unspecified) | 8.422 |
| `O=C(Nc1cccnc1)OCC(F)(F)F` | 9.953 |
| `CC(C)Cc1cc(C(=O)NCC(O)C(F)(F)F)[nH]n1` (stereo unspecified) | 59.13 |
| `O=C(Nc1cc(F)cc(F)c1)c1ccncc1` | 1.783 |
| `C=C(C)CN1CCN(c2nccs2)CC1` | 12.41 |
| `CCCNC(=O)c1cccc(CN)c1` | 2.574 |
| `OCC(O)CNc1ncc(-c2ccccc2)s1` (stereo unspecified) | 17.17 |
| `Cc1ccccc1CSCC(=O)N[C@@H]1CCNC[C@H]1O` | -5.225 |
| `CCN1CCC(NC(=O)c2ccc3c(c2)OCO3)CC1` | -7.435 |
| `CCn1c(N)nc2cc(CO)ccc21` | 3.738 |
| `CC[C@H](N)c1ccccc1F` | 9.16 |
| `COc1cc(OC)c(C(=O)c2nccn2C)c(OC)c1` | 3.988 |
| `C=C(Br)Cn1c(CO)nc2ccccc21` | 69.03 |
| `NC(c1ccccc1)c1c[nH]cn1` (stereo unspecified) | 11.79 |
| `C=C(C)COCCNC(=O)c1c(O)cccc1F` | 40.82 |
| `NC(=O)COc1ccccc1OCC(N)=O` | -3.755 |
| `CCCNC(=O)C(C)NC(=O)c1ccoc1` (stereo unspecified) | -8.208 |
| `CN(Cc1cc(=O)n(C)c(=O)n1C)C1CCS(=O)(=O)C1` (stereo unspecified) | -4.025 |
| `CC1(C)Oc2ccc(NC(=O)C3CCOC3)cc2O1` (stereo unspecified) | 37.02 |
| `CN(C)C(=O)c1cc(-c2ccncc2)on1` | -5.083 |
| `CC(C)[C@H]1CN(C(=O)c2cnc3c(c2)CCC3)C[C@@H]1N` | 2.226 |
| `Cc1cc(C(=O)N(C)C[C@H](O)CO)cc(Cl)c1Br` | 53.47 |
| `O=C(Cc1ccc(Cl)cc1Br)NC(CO)CO` | 4.397 |
| `COCCNCCNC(=O)c1ccc(C#N)cc1` | -3.841 |
| `CCOc1cc(CN)ccn1` | -0.4667 |
| `CS(=O)(=O)NCc1ccnc(N2CCCCCC2)c1` | 8.037 |
| `COc1ccc(CNC(=O)CCNC(=O)C(C)C)cc1` | -5.26 |
| `CN(CC(N)=O)C(=O)c1ccc(-c2ccco2)[nH]c1=O` | -11.98 |
| `COc1ccc(CCN)c(Cl)c1` | -11.76 |
| `O=C(NC1CC1)c1cccc(CNc2ccccn2)c1` | 50.34 |
| `O=C(NCC1CCS(=O)(=O)C1)c1cc2ccccc2[nH]1` (stereo unspecified) | -6.287 |
| `COCCN(CC(=O)NCc1ccco1)C(C)(C)CO` | -4.597 |
| `COCC1CN(c2ccccn2)CCO1` (stereo unspecified) | 6.145 |
| `CCc1nn(C)c(CC)c1S(=O)(=O)N1CCC(N)C1` (stereo unspecified) | -12.68 |
| `CC(C)(C)OCCOc1ccc(OCCO)cc1` | 63.67 |
| `COc1cccc([C@H]2C[C@H](N)C2)c1` | 18.83 |
| `CN(Cc1ncc[nH]1)c1cc(C2CC(N)C2)nc(N)n1` (stereo unspecified) | -15.41 |
| `CN1CCN(C(=O)Cc2cn(C)c3ccccc23)CC1` | 9.289 |
| `CC(C)OCCn1cnc(C#N)c1C#N` | 9.824 |
| `CC(C(=O)N[C@@H](C)CO)c1ccsc1` (stereo partly specified) | -0.7292 |
| `CCN(Cc1ccoc1)C(=O)[C@@H](N)C(C)C` | -5.092 |
| `Cc1ccc(OCCOC(=O)N(C)C)nc1` | -4.307 |
| `COCCNC(=O)C1CN(Cc2ccccc2)CCO1` (stereo unspecified) | 32.25 |
| `Cc1cc(C2CCC2)nc(N2CCNC(=O)C2)n1` | 47.9 |
| `CC(C(N)=O)S(=O)(=O)Cc1ccccc1C(F)(F)F` (stereo unspecified) | -8.284 |
| `Cn1cc(C(=O)Nc2ccc(F)cc2)ccc1=O` | -4.699 |
| `O=C(CNc1ncccn1)NCCc1ccccc1` | -3.208 |
| `COC(=O)c1n[nH]c2ccc(NC(=O)C(C)C)cc12` | 1.823 |
| `COC(=O)c1ccc(CSc2n[nH]c(=O)n2C)o1` | 7.704 |
| `COC1CCN(Cc2cccc(OCC(N)=O)c2)C1` (stereo unspecified) | 11.44 |
| `CN(Cc1c(F)cccc1Cl)S(=O)(=O)N1CCOCC1` | 53.95 |
| `CN(Cc1ccccc1)C(CN)C1CC1` (stereo unspecified) | 31.9 |
| `Brc1cccc2c1CNCCO2` | 39.8 |
| `Cc1nc2ccc(C(=O)NC3C=CS(=O)(=O)C3)cc2o1` (stereo unspecified) | 0.9052 |
| `NCc1ccc(OC2CCCC2)nc1` | -9.115 |
| `CCN(CC1CCOC1)C(=O)CN(C)S(C)(=O)=O` (stereo unspecified) | -15.92 |
| `CN(CCCOc1ccc(F)cc1)CC(=O)NC(N)=O` | -14.47 |
| `COCCN1CCCC(Nc2ccc(Cl)cn2)C1` (stereo unspecified) | 70.19 |
| `NC(=O)CSc1nnc(-c2ccccc2)n1CCCO` | 5.663 |
| `CN(c1ccc(F)cc1)S(=O)(=O)N1CCCCC1` | 63.77 |
| `CCN1CCCN(C(=O)c2ccc(C)c(F)c2)CC1` | -6.977 |
| `NC(=O)CCNCCc1ccccc1` | 17.15 |
| `CCOc1cc(C(=O)NCCCOC(C)C)ccn1` | 72.62 |
| `Cc1cc(C(=O)NCc2ncnn2C)c(C)cc1Br` | -2.349 |
| `CC(C)NS(=O)(=O)c1cc(CO)ccc1F` | 15.96 |
| `CC(C)OCCOCC(O)CN(C)Cc1cccnc1` (stereo unspecified) | -6.918 |
| `CC(CO)(CO)NCc1cnn(-c2ccc(Br)cc2)c1` | 59.74 |
| `Cc1cccc(-n2nnc(C(N)=O)c2N)c1C` | 2.618 |
| `COC(=O)Cn1c(=O)oc2ccccc21` | -14.29 |
| `COc1cccc([C@@H]2C[C@H]2CN)c1` | 35.63 |
| `Cc1cccc(NC(=O)C(C)N)c1` (stereo unspecified) | 13.07 |
| `CC(C)C(N)C1(CO)CC=CC1` (stereo unspecified) | -30.98 |
| `CC(NC(=O)NCCn1ccnc1)c1ccccn1` (stereo unspecified) | -3.412 |
| `CCn1cnnc1C1CNCCO1` (stereo unspecified) | -2.905 |

The first 6 entries again:

{"structure": "CN1CCC(CCN)CC1", "percent effect": -36.06}
{"structure": "CCOc1ncc(C(=O)NCC(C)(O)C(C)C)cc1Cl", "stereo": "stereo unspecified", "percent effect": 79.73}
{"structure": "NCc1ccc(CNC(=O)C2CCCCO2)cc1", "stereo": "stereo unspecified", "percent effect": 0.1175}
{"structure": "Cc1[nH]c2ccc(C(N)=O)cc2c1C", "percent effect": 90.08}
{"structure": "C[C@@H](N)c1ccc(Cl)cn1", "percent effect": 2.431}
{"structure": "Cc1cccc2c1OCCC2N", "stereo": "stereo unspecified", "percent effect": 8.446}